Target: Botulinum neurotoxin type A (Clostridium botulinum) (UniProt P0DPI0)
Test: Inhibition of Clostridium botulinum recombinant Bont/A light chain expressed in Escherichia coli BL21 GOLD at 50 uM

By UniProt entry, the sequences of proteins in these tests, tags left out.
UniProt P0DPI0, whole entry, looked up: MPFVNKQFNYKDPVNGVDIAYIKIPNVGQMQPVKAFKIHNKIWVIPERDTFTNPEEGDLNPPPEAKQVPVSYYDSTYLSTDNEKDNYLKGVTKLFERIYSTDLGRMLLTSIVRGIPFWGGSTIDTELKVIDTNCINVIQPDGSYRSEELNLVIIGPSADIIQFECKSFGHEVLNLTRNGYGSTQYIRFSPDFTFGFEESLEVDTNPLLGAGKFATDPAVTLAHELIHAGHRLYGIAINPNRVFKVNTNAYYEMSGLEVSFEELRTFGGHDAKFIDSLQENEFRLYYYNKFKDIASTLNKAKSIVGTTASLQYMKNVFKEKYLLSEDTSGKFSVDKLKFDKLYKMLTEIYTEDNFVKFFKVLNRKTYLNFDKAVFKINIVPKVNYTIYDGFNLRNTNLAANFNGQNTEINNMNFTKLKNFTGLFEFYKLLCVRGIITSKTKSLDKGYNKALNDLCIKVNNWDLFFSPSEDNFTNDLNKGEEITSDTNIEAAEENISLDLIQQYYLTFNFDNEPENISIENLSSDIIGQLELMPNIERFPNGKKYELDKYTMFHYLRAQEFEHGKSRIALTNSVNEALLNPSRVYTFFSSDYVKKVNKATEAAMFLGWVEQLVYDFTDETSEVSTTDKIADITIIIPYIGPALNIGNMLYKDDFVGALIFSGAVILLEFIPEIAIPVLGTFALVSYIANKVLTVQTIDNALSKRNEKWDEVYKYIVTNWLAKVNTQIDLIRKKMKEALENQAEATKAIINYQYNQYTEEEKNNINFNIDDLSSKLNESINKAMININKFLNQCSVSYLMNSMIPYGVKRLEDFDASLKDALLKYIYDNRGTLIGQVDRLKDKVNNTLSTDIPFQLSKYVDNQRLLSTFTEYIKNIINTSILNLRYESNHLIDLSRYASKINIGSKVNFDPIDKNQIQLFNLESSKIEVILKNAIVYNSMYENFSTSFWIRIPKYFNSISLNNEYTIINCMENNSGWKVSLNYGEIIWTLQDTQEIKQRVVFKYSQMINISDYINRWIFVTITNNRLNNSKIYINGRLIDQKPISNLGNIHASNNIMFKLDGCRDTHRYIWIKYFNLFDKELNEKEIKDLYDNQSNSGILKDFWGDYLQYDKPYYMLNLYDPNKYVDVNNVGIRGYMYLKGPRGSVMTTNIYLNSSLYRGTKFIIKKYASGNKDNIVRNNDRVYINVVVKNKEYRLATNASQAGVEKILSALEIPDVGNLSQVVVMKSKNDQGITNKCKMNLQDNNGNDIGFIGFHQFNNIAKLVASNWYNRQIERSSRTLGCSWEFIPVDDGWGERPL

| Structure (SMILES) | inhibition |
| --- | --- |
| O=C(CO)Nc1cc(-c2ccc(Cl)cc2)n[nH]1 | < 10% |
| CC(=O)Nc1cc(-c2ccc(Cl)cc2)n[nH]1 | < 10% |
